A mixed list of measured activities; the numbers were collected in NIAID ChemDB.

Shared fields: tests in culture; organism: Mycobacterium tuberculosis

Neighbouring rows are from separate reports. Blank or dashed fields: not listed here. MIC bound: limit read from a one-dose screen. MIC50, MIC90 and the like: level of inhibition, or share of isolates inhibited. Inhibition is in % at the dose shown (toxicity tests: loss of growth or viability). ECn is the concentration giving n% inhibition of infection, replication or growth.

structure | strain | cell line | method | endpoint | tested at | value
O=C(O)C(=O)c1c[nH]c2ccccc12 | H37Rv | - | - | MIC | - | 100 µg/mL
Cc1c2ccnc(-c3ccccc3)c2cc2c1[nH]c1ccccc12 | H37Rv | - | resazurin | MIC bound | - | <6.25 µg/mL
O=S(=O)(O)c1ccc(O)c2c(S(=O)(=O)O)cccc12 | H37Rv | - | - | MIC | - | >100 µg/mL
CCN(CC)C(=S)S[Se](SC(=S)N(CC)CC)(SC(=S)N(CC)CC)SC(=S)N(CC)CC | ETA-R | - | - | MIC | - | 1.6 µg/mL
O=C(O)c1cc(-c2ccccc2O)nc2cc(S(=O)(=O)[O-])ccc12.[Na+] | H37Rv | - | - | MIC | - | 100 µg/mL
CO[C@H]1/C=C/O[C@@]2(C)Oc3c(C)c(O)c4c(O)c(c5c(c4c3C2=O)NC2(CCN(CC(C)C)CC2)N=5)=NC(=O)/C(C)=C\C=C\[C@H](C)[C@H](O)[C@@H](C)[C@@H](O)[C@@H](C)[C@H](OC(C)=O)[C@@H]1C | 29 (rifampin-resistant) | - | - | MBC | - | 0.2 µg/mL
CC(C)N=c1cc2n(-c3ccc(Cl)cc3)c3ccccc3nc-2cc1Nc1ccc(Cl)cc1 | MDR23 | - | broth dilution / resazurin | MIC | - | 16 µg/mL
O=C(/C=C/c1ccncc1)c1ccco1 | - | - | - | inhibition | 12.5 µg/mL | 0%
Cc1cc(N/N=C/c2ccccn2)nc2ccccc12 | H37Rv | VERO | - | MIC | - | 6.25 µg/mL
CC(Cc1c[nH]c2ccccc12)NCCNC1CCCC(C)C1C | - | - | - | MIC | - | 50 µM
CCN(CC)Cc1cc(O)c(CN(CC)CC)cc1O | H37Rv | - | - | MIC | - | 100 µg/mL
Nc1ncccc1/C=C/C(=O)c1cc(Cl)ccc1O | H37Rv | - | - | inhibition | 12.5 µg/mL | 0%
O=C(O)c1c(O)cc(O)cc1O | H37Rv | - | - | MIC | - | 50 µg/mL
NC1CCN(c2nc3c(cc2F)c(=O)c(C(=O)O)cn3-c2ccc(F)cc2F)C1 | Drug-resistant | - | - | MIC90 | - | >8 µg/mL
Nc1ccc(C(=O)N/C(=C\C=C\c2ccco2)c2nc3c4c(ccc3[nH]2)C(=O)c2ccccc2C4=O)cc1 | H37Rv | - | resazurin | MIC bound | - | >6.25 µg/mL
CCOC(=O)Nc1cc(NC/C(=N/O)c2ccc([N+](=O)[O-])cc2)c([N+](=O)[O-])c(N)n1 | H37Rv | - | - | EC50 | - | >12.5 µg/mL
O=c1[nH]cc(I)cc1I | H37Rv | - | - | MIC | - | >100 µg/mL
CC(CNCCNC(C)c1cccc2ccccc12)c1ccccc1 | - | - | - | MIC | - | 25 µM
CC(=O)Nc1ccc2c(c1)CN1C(=O)c3ccccc3C1=N2 | H37Rv | - | resazurin | inhibition | 6.25 µg/mL | 17%
CC[C@H]1OC(=O)[C@H](C)[C@@H](O[C@H]2C[C@@](C)(OC)[C@@H](O)[C@H](C)O2)[C@H](C)[C@@H](O[C@@H]2O[C@H](C)C[C@H](N(C)C)[C@H]2O)[C@](C)(OC)C[C@@H](C)C(=O)[C@H](C)[C@@H](O)[C@]1(C)O | ATCC 35823 | - | - | MIC | - | >8 µg/mL
C1=C(CCNCCNCCCc2ccccc2)CCCC1 | - | - | - | MIC | - | 12.5 µM
COc1c2ccoc2c(OC)c2oc(=O)ccc12 | H37Rv | - | BACTEC | MIC bound | - | >12.5 µg/mL
CCOC(=O)Nc1cc2c(c(N)n1)N=C(c1ccccc1)CCN2 | H37Rv | VERO | - | EC50 | - | <12.5 µg/mL
Nc1ccc(O)c(C(=O)/C=C/c2ccccc2)c1 | - | - | - | EC50 | - | >12.5 µg/mL
COc1ccc(CCNCCNCCCCc2ccccc2)cc1OC | - | - | - | MIC | - | 50 µM
NC1CCN(c2c(F)cc3c(=O)c(C(=O)O)cn(C4CC4)c3c2Cl)C1 | ATCC 35823 | - | - | MIC | - | 0.125 µg/mL
COc1ccccc1OCC(=O)O | H37Rv | - | - | MIC | - | >100 µg/mL
Cc1cc2nc(Nc3nc(C)c(C)c(=O)[nH]3)[nH]c2cc1C | H37Rv | - | resazurin | MIC bound | - | >6.25 µg/mL
CC(C)=CCC/C(C)=C/CNCCN1CCCC2CCCCC21 | - | - | - | MIC | - | 25 µM
CCOC(=O)Nc1cc(N[C@@H](C)[C@H](C)c2ccccc2)c([N+](=O)[O-])c(N)n1 | H37Rv | - | - | inhibition | 12.5 µg/mL | 12%
CC(C)c1ccc2c(c1)CC[C@H]1[C@](C)(CNCCNN3CCCC3)CCC[C@]21C | - | - | - | MIC | - | 50 µM
CC1(C)CN(S(=O)(=O)c2ccc(Br)cc2)CC(C)(C)O1 | H37Rv | - | - | MIC | - | >100 µg/mL
CCOC(=O)Nc1cc(NCC(O)CN)c([N+](=O)[O-])c(NC(=O)OCC)n1 | H37Rv | - | - | EC50 | - | >12.5 µg/mL
Cc1nc2ccccc2[nH]c1=O | H37Rv | - | - | MIC | - | >100 µg/mL
CCN(CC)CCNc1ccc2nc(C)n3c4ccc(O)cc4c(=O)c1c23.Cl | H37Rv | - | BACTEC | inhibition | 12.5 µg/mL | 98%
Nc1cc(=O)[nH]n1-c1ccccn1 | H37Rv | - | - | MIC | - | >100 µg/mL
COC(C(=O)C1=C2Oc3c4c(cc(O)c3C(=O)C2C2=C(CCCC2)C1=O)OC(C)(C)C=C4)C(C)CCC=C(C)C | H37Rv | - | BACTEC | inhibition | 12.5 µg/mL | 91%
NCC[C@H](O)C(=O)N[C@@H]1C[C@H](N)[C@@H](O[C@H]2O[C@H](CN)[C@@H](O)[C@H](O)[C@H]2O)[C@H](O)[C@H]1O[C@H]1O[C@H](CO)[C@@H](O)[C@H](N)[C@H]1O | TN4800 (W33) | - | - | MIC | - | >256 µg/mL
CCOc1ccccc1CNCCNC1Cc2ccccc2C1 | - | - | - | MIC | - | 50 µM
BrC(Br)(Br)c1ccc2ccccc2n1 | H37Rv | - | - | MIC | - | 100 µg/mL
c1ccc(C(CCNCCN[C@H]2C[C@@H]3CC[C@H]2C3)c2ccccc2)cc1 | - | - | - | MIC | - | 12.5 µM
O=[N+]([O-])c1ccc2nc(-c3ccccn3)[nH]c2c1 | H37Rv | - | resazurin | inhibition | 6.25 µg/mL | 62%
CCOC(=O)Nc1cc(NCc2ccc(S(N)(=O)=O)cc2)c(N)c(N)n1 | H37Rv | - | - | EC50 | - | >12.5 µg/mL
CC1COc2c(N3CCN(C)CC3)c(F)cc3c(=O)c(C(=O)O)cn1c23 | ATCC 35822 | - | - | MBC | - | 2 µg/mL
Cc1nn(-c2nc(-c3ccccc3)cs2)c(C)c1C | H37Rv | - | BACTEC | inhibition | 12.5 µg/mL | 40%
C[C@@H]1[C@H]2C[C@@H](C[C@H]1NCCNC(c1ccccc1)c1ccccc1)C2(C)C | - | - | - | MIC | - | 12.5 µM
CC[C@@H](CO)NCCNC1CCCCCCC1 | - | - | - | MIC | - | 25 µM
Cc1c([N+](=O)[O-])cc(NC(=O)/C=C\C(=O)O)cc1[N+](=O)[O-] | H37Rv | - | BACTEC | MIC bound | - | >12.5 µg/mL
Nc1ccccc1S(=O)(=O)O | H37Rv | - | - | MIC | - | >100 µg/mL
CSC(=S)Nc1nc2ccc(C)cc2s1 | H37Rv | - | BACTEC | MIC | - | ≥128 µg/mL
O=C1CC(c2ccc(Cl)cc2)Oc2ccccc21 | - | - | - | inhibition | 12.5 µg/mL | 7%
CCCCC(Nc1cc(NC(=O)OCC)nc(N)c1[N+](=O)[O-])C(C)O | H37Rv | - | - | inhibition | 12.5 µg/mL | 0%
CC(=O)C(N=NC1CCC(S(=O)(=O)NB2N=CS2)CC1)C(=O)Nc1ccccc1C | H37Rv | - | BACTEC | MIC | - | ≥12.5 µg/mL
c1ccc([C@H]2C[C@@H]2NCCNC2C3CC4CC(C3)CC2C4)cc1 | - | - | - | MIC | - | 25 µM
COc1ccc(C(=O)/C=C/c2cccnc2)cc1 | H37Rv | - | - | inhibition | 12.5 µg/mL | 0%
NC(N)=Nc1nc2ccccc2[nH]1 | H37Rv | - | - | MIC | - | >100 µg/mL
COc1ccc(CNCCNCCc2ccc(F)cc2)c(OC)c1 | - | - | - | MIC | - | 50 µM
CC12CCCCC1C1=C(CCCC1)C(=O)C2 | H37Rv | - | - | MIC | - | >100 µg/mL
O=C1C=C(Nc2ccccn2)C(=O)C=C1Nc1ccccn1 | H37Rv | - | resazurin | MIC bound | - | >6.25 µg/mL
O=Cc1ccc([N+](=O)[O-])cc1C(=O)O | H37Rv | - | - | MIC | - | >100 µg/mL
CN(C)P1(N(C)C)=NP(c2ccccc2)(c2ccccc2)=NP(N(C)C)(N(C)C)=N1 | H37Rv | - | BACTEC | MIC | - | ≥128 µg/mL
Nc1ccc(C(=O)/C=C/c2cccnc2N)cc1 | - | - | - | inhibition | 12.5 µg/mL | 0%
CO[C@H]1/C=C/O[C@@]2(C)Oc3c(C)c(O)c4c(=O)c(c5oc6cc(N7CCN(CC(C)C)CC7)cc(=O)c6nc5c4c3=C2O)NC(=O)/C(C)=C\C=C\[C@H](C)[C@H](O)[C@@H](C)[C@@H](O)[C@@H](C)[C@H](OC(C)=O)[C@@H]1C | 2847 (rifampin-sensitive) | - | - | MBC | - | 0.025 µg/mL
C[C@@H](NCCNC[C@@H]1CC[C@H]2C[C@@H]1C2(C)C)C1CCCCC1 | - | - | - | MIC | - | 50 µM
Cc1cc(N2CCCC2)ccc1N.O=S(=O)(O)O | H37Rv | - | - | MIC | - | 50 µg/mL
CC(=O)N1Cc2c(N)nc(N)nc2C1C | H37Rv | - | BACTEC | inhibition | 12.5 µg/mL | -10%
COc1cc2nccc(Cl)c2cc1OC | H37Rv | - | - | MIC | - | 50 µg/mL
C[C@@H]1C(=O)OCC2=C3C[C@@H](CC[C@@]3(C)C=CC2=O)[C@H](C)C(=O)OCC2=C3C[C@H]1CC[C@@]3(C)C=CC2=O | H37Rv | - | BACTEC | inhibition | 12.5 µg/mL | 18%
O=C1CCC(=O)N1Br | H37Rv | - | - | MIC | - | 50 µg/mL
FC(F)(F)Oc1ccc(CNCCNC2CCCCCCC2)cc1 | - | - | - | MIC | - | 50 µM
O=C1N2CCNc3ccccc3C(c3ccccc3)N1CC2 | H37Rv | - | BACTEC | MIC | - | ≥12.5 µg/mL
O=S(=O)(O)OCCCCCCCCCC[n+]1ccccc1 | H37Rv | - | - | MIC | - | >100 µg/mL
COc1ccc(C2=C(c3ccc(OC)cc3)c3c(OC)cc(OC)cc3OC2)cc1 | H37Rv | - | BACTEC | inhibition | 12.5 µg/mL | 8%
C[C@@H]1[C@@H](NCCNCCc2ccc(Cl)cc2Cl)C[C@H]2C[C@@H]1C2(C)C | - | - | - | MIC | - | 50 µM
CC1SC(=Nc2ccc(S(N)(=O)=O)cc2)NC1=O | H37Rv | - | - | MIC | - | >100 µg/mL

10 of the rows above, restated:

structure	strain	cell line	method	endpoint	tested at	value
COC(C(=O)C1=C2Oc3c4c(cc(O)c3C(=O)C2C2=C(CCCC2)C1=O)OC(C)(C)C=C4)C(C)CCC=C(C)C	H37Rv	-	BACTEC	inhibition	12.5 µg/mL	91%
Nc1ccc(C(=O)N/C(=C\C=C\c2ccco2)c2nc3c4c(ccc3[nH]2)C(=O)c2ccccc2C4=O)cc1	H37Rv	-	resazurin	MIC bound	-	>6.25 µg/mL
C[C@@H]1[C@H]2C[C@@H](C[C@H]1NCCNC(c1ccccc1)c1ccccc1)C2(C)C	-	-	-	MIC	-	12.5 µM
Nc1ccc(O)c(C(=O)/C=C/c2ccccc2)c1	-	-	-	EC50	-	>12.5 µg/mL
CO[C@H]1/C=C/O[C@@]2(C)Oc3c(C)c(O)c4c(=O)c(c5oc6cc(N7CCN(CC(C)C)CC7)cc(=O)c6nc5c4c3=C2O)NC(=O)/C(C)=C\C=C\[C@H](C)[C@H](O)[C@@H](C)[C@@H](O)[C@@H](C)[C@H](OC(C)=O)[C@@H]1C	2847 (rifampin-sensitive)	-	-	MBC	-	0.025 µg/mL
Nc1ncccc1/C=C/C(=O)c1cc(Cl)ccc1O	H37Rv	-	-	inhibition	12.5 µg/mL	0%
O=c1[nH]cc(I)cc1I	H37Rv	-	-	MIC	-	>100 µg/mL
CN(C)P1(N(C)C)=NP(c2ccccc2)(c2ccccc2)=NP(N(C)C)(N(C)C)=N1	H37Rv	-	BACTEC	MIC	-	≥128 µg/mL
NC1CCN(c2c(F)cc3c(=O)c(C(=O)O)cn(C4CC4)c3c2Cl)C1	ATCC 35823	-	-	MIC	-	0.125 µg/mL
COc1ccc(C2=C(c3ccc(OC)cc3)c3c(OC)cc(OC)cc3OC2)cc1	H37Rv	-	BACTEC	inhibition	12.5 µg/mL	8%